Each compound was assayed against T. brucei FPPS (Trypanosoma brucei, UniProt Q57WF1). Conditions: read-out: T. brucei FPPS IC50.

The chains behind the UniProt entries cited, without tags or fusion partners. Residues count along the entry.
UniProt Q57WF1, 1-367: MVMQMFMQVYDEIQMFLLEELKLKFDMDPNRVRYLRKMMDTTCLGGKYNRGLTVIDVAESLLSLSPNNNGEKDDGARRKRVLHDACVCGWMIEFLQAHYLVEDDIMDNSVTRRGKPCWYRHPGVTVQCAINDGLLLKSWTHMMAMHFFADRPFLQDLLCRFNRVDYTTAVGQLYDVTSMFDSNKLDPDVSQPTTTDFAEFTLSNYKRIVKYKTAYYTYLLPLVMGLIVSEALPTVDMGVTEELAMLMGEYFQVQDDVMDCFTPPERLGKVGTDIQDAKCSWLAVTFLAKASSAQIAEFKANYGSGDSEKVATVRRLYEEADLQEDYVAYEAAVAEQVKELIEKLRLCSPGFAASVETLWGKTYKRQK

Compared with `O=P([O-])(O)C(O)(CC[S+]1CCCC1)P(=O)(O)O` (stereo not drawn), `O=P([O-])(O)C(O)(C[S+]1CCCC1)P(=O)(O)O` (stereo not drawn) is 3.1-fold lower in IC50: 780 nM for the first, 250 nM for the second. The second is the more potent here.

`CCCC[S+](C)CC(O)(P(=O)([O-])O)P(=O)(O)O` (stereo not drawn) and `C[S+](C)CCC(O)(P(=O)([O-])O)P(=O)(O)O` (stereo not drawn) are within 1.5-fold of each other in IC50: 1100 nM for the first, 1400 nM for the second.

Compared with `O=P([O-])(O)C(O)(C[S+]1CCCCC1)P(=O)(O)O` (stereo not drawn), `C[S+](CCCOc1ccccc1)CC(O)(P(=O)([O-])O)P(=O)(O)O` (stereo not drawn) is 2.5-fold lower in IC50: 590 nM for the first, 240 nM for the second. The second is the more potent here.

— patent US7687482B2, “Bisphosphonate compounds and methods” (The Board of Trustees of the University of Illinois, priority 2006, dated 2010)
